Reference: PubChem BioAssay AID1259414 (Drosophila RNAi Screening Center, 2018)
In all, the deposit lists about 24,000 reagents; shown is a random part of those with a known target gene and a result. In the full data, about 1,210 (5%) are marked active. 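Inactive calls also include excluded dsRNAs with several or no targets, genes unexpressed in JW18, and well A1, regardless of score.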 Entries without a mark were called inactive. Names joined by + are all predicted targets of the reagent.

Purpose: 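Host factors increasing or decreasing Wolbachia levels in cultured fly cells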 (primary screen)
System: Drosophila JW18 cells infected with Wolbachia
Reagent: long dsRNA against Drosophila genes, 0.25 µg dsRNA per well of a 384-well plate
Duration: 5 days
Challenge: cells persistently infected with Wolbachia before knock-down; no added drug
Detection: 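Automated imaging of bacterial rRNA staining divided by host cell count, reported as plate-normalised robust z-score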
Reading the numbers: Wolbachia per cell robust z: higher = more Wolbachia per host cell than the plate typical
Call rule: 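Active if absolute robust z reaches 1.5 in two or more of three replicates, leaving out multi- or no-target dsRNAs, genes unexpressed in JW18 and A1 wells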

Which result is listed for bru3 [DRSC09280]?
Wolbachia per cell robust z, rep 1: 0.00231; Wolbachia per cell robust z, rep 2: -0.599; Wolbachia per cell robust z, rep 3: -0.237

How did the screen score bru3 [DRSC09687]?
Wolbachia per cell robust z, rep 1: -0.0726; Wolbachia per cell robust z, rep 2: -0.742; Wolbachia per cell robust z, rep 3: -1.54

With bru3 [DRSC09887], what was measured?
Wolbachia per cell robust z, rep 1: 0.501; Wolbachia per cell robust z, rep 2: -0.871; Wolbachia per cell robust z, rep 3: -4.84

How did the screen score bru3 [DRSC22732]?
Wolbachia per cell robust z, rep 1: 0.663; Wolbachia per cell robust z, rep 2: 0.24; Wolbachia per cell robust z, rep 3: -0.949

How did the screen score bru3 [DRSC28166]?
Wolbachia per cell robust z, rep 1: -0.234; Wolbachia per cell robust z, rep 2: -1.31; Wolbachia per cell robust z, rep 3: -1.76

With bru3 [DRSC38591], what does the deposit list?
Wolbachia per cell robust z, rep 1: -0.0252; Wolbachia per cell robust z, rep 2: 0.702; Wolbachia per cell robust z, rep 3: -4.34

For CG32298 + CG32299 [DRSC07980], how do the results read?
Wolbachia per cell robust z, rep 1: 0.0318; Wolbachia per cell robust z, rep 2: 2.58; Wolbachia per cell robust z, rep 3: 0.675

With CG32298 + CG32299 [DRSC22354], what was measured?
Wolbachia per cell robust z, rep 1: 0.119; Wolbachia per cell robust z, rep 2: -0.932; Wolbachia per cell robust z, rep 3: -0.463

With CG32298 + CG32299 [DRSC25827], what was measured?
Wolbachia per cell robust z, rep 1: -0.915; Wolbachia per cell robust z, rep 2: 1.78; Wolbachia per cell robust z, rep 3: 0.0925

What did the screen give for Ppat-Dpck [DRSC09744]?
Wolbachia per cell robust z, rep 1: -1.85; Wolbachia per cell robust z, rep 2: 0.287; Wolbachia per cell robust z, rep 3: 0.668

What is on record for Ppat-Dpck [DRSC41599]?
Wolbachia per cell robust z, rep 1: -0.107; Wolbachia per cell robust z, rep 2: -1.65; Wolbachia per cell robust z, rep 3: -0.96

With Set8 [DRSC15473], what was measured?
Wolbachia per cell robust z, rep 1: -2.7; Wolbachia per cell robust z, rep 2: 0.129; Wolbachia per cell robust z, rep 3: -0.0451

Which result is listed for Set8 [DRSC27118]?
Wolbachia per cell robust z, rep 1: 0.275; Wolbachia per cell robust z, rep 2: 0.701; Wolbachia per cell robust z, rep 3: -4.56
